The values that follow come from paper PMC9242477, “Type B and type A influenza polymerases have evolved distinct binding interfaces to recruit the RNA polymerase II CTD” (2022).

The target of this test is G2-CTD (wild-type full-length CTD of RPB1 fused to G2 and the SV40 NLS). Nature of the test: split-gaussia luciferase complementation assay (in vivo CTD binding). As to conditions: parent: est. 100; read off a plot.

“FluPolB (B/Memphis/13/2003) wt: PB2, PB1 and PA-G1 (from UniProt Q5V8Z9;Q5V8Y6;Q5V8X3) PA:K416E”: the percent of parent was 110 % of wt.
